Pooled drug test results. Numbers come from NIAID ChemDB, via PubChem.

All rows: growth or infection tests; species: HIV-1; cells: CEM; measure: EC50

Rows are shuffled and stem from different studies. Blank or dashed fields: not listed here. ECn is the concentration giving n% inhibition of infection, replication or growth.

structure	strain or isolate	changes	method	result
CC(C)CN(C[C@@H](O)[C@H](Cc1ccccc1)NC(=O)OC1CCOC1)S(=O)(=O)c1ccc2nc(N)sc2c1	IIIB		cytopathic effect / MTT	0.004 µM
C#CCN1C(=O)N(Cc2ccccc2)S(=O)(=O)c2cscc21	IIIB		syncytia	5.1 µM
Cc1ccnc2c1NC(=O)c1cccnc1N2C1CC1	IIIB	RT-Y181C	p24	2.5 µg/mL
Nc1nc2c(ncn2[C@H]2CC[C@@H](CO)O2)c(=O)[nH]1	IIIB TIBO R82913 STR-1 (RT L100I Y181C)	RT-L100I Y181C	syncytia	0.7 µM
CCOCn1c(Cc2ccccc2)c(CC)c(=O)[nH]c1=O	IIIB HEPT-resistant (RT Y188H)	RT-Y188H	syncytia	7.3 µg/mL
O=c1[nH]cnc2c1ncn2[C@H]1CC[C@@H](CO)O1	IIIB-Nevirapine(1.0)(RT-Y181C)	RT-Y181C	syncytia	20 µM
CC(C)Nc1cccnc1N1CCN(C(=O)c2cc3cc(NS(C)(=O)=O)ccc3[nH]2)CC1	D-3 (RT-V108I M184I)	RT-V108I M184I	cytopathic effect	0.014 µg/mL
Fc1cccc(F)c1[C@H]1SCc2nc3ccccc3n21	IIIB	RT-Y181C	cytopathic effect / XTT	≥6.9 µM
CC(C)=CCN1Cc2cccc3[nH]c(=S)n(c23)C[C@@H]1C	IIIB TIBO R82150-resistant (RT L100I)	RT-L100I	syncytia	≥5 µM
CCNc1cccnc1N1CCN(C(=O)c2cc3cc(OC)ccc3[nH]2)CC1	IIIB-Nevirapine(0.1)(RT-Y181C)	RT-Y181C	syncytia	0.067 µg/mL
CCOCn1c(Cc2cc(C)cc(C)c2)c(CC)c(=O)[nH]c1=O	IIIB nevirapine-resistant (RT Y181C)	RT-Y181C	syncytia	0.2 µM
OB(O)c1ccccc1COc1c(F)cccc1F	IIIB		syncytia	>50 µM
Fc1cccc(F)c1[C@@H]1SCc2nc3ccccc3n21	IIIB	RT-Y188C	cytopathic effect / XTT	13.87 µM
O=C1N(Cc2ccccc2)c2cscc2S(=O)(=O)N1Cc1ccccc1	IIIB	RT-Y188H	syncytia	7.8 µM
CC(C)=CCN1Cc2cc(Cl)cc3[nH]c(=S)n(c23)C[C@@H]1C	IIIB	RT-M184I	p24	0.02 µg/mL
CC(C)=CCN1Cc2cc(Cl)cc3[nH]c(=S)n(c23)C[C@@H]1C	TSAO(RT-E138K)	RT-E138K	syncytia	0.94 µM
Cc1c(N)cccc1C(=O)N[C@@H](Cc1ccccc1)[C@H](O)CN(CC(C)C)S(=O)(=O)c1ccc2ncsc2c1	IIIB		cytopathic effect / MTT	0.021 µM
Cc1cn([C@@H]2O[C@H](CO[Si](C)(C)C(C)(C)C)C3(OS(=O)(=O)C=C3N)[C@H]2O[Si](C)(C)C(C)(C)C)c(=O)n(C)c1=O	IIIB	RT-M184V	p24	0.019 µg/mL
CC[C@H]1C(=O)Nc2ccc(F)cc2N1C(=O)OC(C)C	NNRTI-resistant	RT-L100I	cytopathic effect	0.043 µM
Cc1cccc(C)c1OCC(=O)N[C@@H](Cc1ccccc1)[C@H](O)CN(CC(C)C)S(=O)(=O)c1ccc2nc(N)sc2c1	IIIB		cytopathic effect / MTT	0.003 µM
c1ccc(C2OCc3nc4ccccc4n32)cc1	TIBO R82150-resistant (RT K103N)	RT-K103N	cytopathic effect / MTT	>3.38 µM
Cc1cccc(C)c1OCC(=O)N[C@@H](Cc1ccccc1)[C@H](O)CN(CC(C)C)S(=O)(=O)c1ccc2ncsc2c1	IIIB		cytopathic effect / MTT	0.042 µM
C=C(C)OC(=O)N1c2cc(Cl)ccc2NC(=S)C1(C)C	TSAO(RT-E138K)	RT-E138K	syncytia	0.025 µM
O=c1[nH]c2ccc(Cl)cc2n1Cc1c(F)cccc1F		RT-Y188H	cytopathic effect	>20 µM
CCOCn1c(Sc2ccccc2)c(CC)c(=O)[nH]c1=O	IIIB	RT-Y181C	syncytia	0.72 µM
Fc1cccc(F)c1C1OCc2nc3ccccc3n21	TSAO-resistant (RT E138K)	RT-E138K	cytopathic effect / MTT	6.92 µM
CC(C)=CCOc1cc(NC(=S)c2ccoc2C)ccc1Cl	IIIB		syncytia	0.0018 ± 0.0004 µM
Nc1ccn([C@H]2CC[C@@H](CO)O2)c(=O)n1	IIIB	RT-E138K	syncytia	0.03 µM
OB(O)c1ccccc1OCc1ccc(I)cc1	IIIB		syncytia	>50 µM
CC(C)CN(C[C@@H](O)[C@H](Cc1ccccc1)NC(=O)OC1CCOC1)S(=O)(=O)c1ccc2ncsc2c1	IIIB		cytopathic effect / MTT	0.009 µM
Cc1ccnc2c1NC(=O)c1cccnc1N2C1CC1	E-2 (RT-V106A)	RT-V106A	cytopathic effect	0.35 µg/mL
CC(C)=CCN1Cc2cc(Cl)cc3[nH]c(=S)n(c23)C[C@@H]1C	IIIB E-EBU(RT-Y181C)	RT-Y181C	syncytia	≥5 µg/mL
O=C1Nc2cscc2S(=O)(=O)N1c1ccc(F)cc1	IIIB		syncytia	>67 µM
Cc1cn([C@@H]2O[C@H](CO[Si](C)(C)C(C)(C)C)[C@@]3(OS(=O)(=O)C=C3N)[C@H]2O[Si](C)(C)C(C)(C)C)c(=O)[nH]c1=O	IIIB		syncytia	0.05 µM
Cc1ccccc1C(=O)N[C@@H](Cc1ccccc1)[C@H](O)CN(CC(C)C)S(=O)(=O)c1ccc2nc(N)sc2c1	IIIB		cytopathic effect / MTT	0.012 µM
Cc1c(Sc2ccccc2)n(COCCO)c(=O)[nH]c1=O	IIIB BHAP(RT-L100I)	RT-L100I	syncytia	40 µg/mL
Nc1ncnc2c1ncn2CC(CF)OCP(=O)(O)O	IIIB		syncytia	9 µM
OB(O)c1ccc(F)cc1	IIIB		syncytia	>250 µM
CCc1cc(NCc2nc3c(Cl)ccc(Cl)c3o2)c(=O)[nH]c1C	TIBO-1(RT-L100I)	RT-L100I	syncytia	0.51 µM
CC(C)Nc1cccnc1N1CCN(C(=O)c2cc3cc(NS(C)(=O)=O)ccc3[nH]2)CC1	IIIB	RT-L100I	syncytia	1.33 ± 0.58 µM
CC(C)=CCN1Cc2cc(Cl)cc3[nH]c(=S)n(c23)C[C@@H]1C	IIIB	RT-K103N	cytopathic effect / XTT	≥16 µM
CC[C@H]1C(=O)Nc2ccc(F)cc2N1C(=O)OC(C)C	IIIB		cytopathic effect	0.001 µg/mL
CCN1C(=O)N(Cc2ccccc2)S(=O)(=O)c2cscc21	IIIB	RT-V106A	syncytia	>310 µM
OB(O)c1ccc(Cl)cc1	IIIB		syncytia	>50 µM
CN1C(=O)N(Cc2ccccc2)S(=O)(=O)c2cscc21	IIIB	RT-V106A	syncytia	>324 µM
Nc1ccn([C@H]2CC[C@@H](CO)O2)c(=O)n1	IIIB nevirapine-resistant (RT Y181C)	RT-Y181C	syncytia	0.02 µM
Cc1cn([C@H]2C[C@H](N=[N+]=[N-])[C@@H](CO)O2)c(=O)[nH]c1=O	IIIB-Nevirapine(0.1)(RT-Y181C)	RT-Y181C	syncytia	0.002 µM
Cc1cn([C@@H]2O[C@H](CO[Si](C)(C)C(C)(C)C)[C@@]3(OS(=O)(=O)C=C3N)[C@H]2O[Si](C)(C)C(C)(C)C)c(=O)[nH]c1=O	IIIB		syncytia	0.05 µM
Cc1cn([C@@H]2O[C@H](CO[Si](C)(C)C(C)(C)C)[C@@]3(OS(=O)(=O)C=C3N)[C@H]2O[Si](C)(C)C(C)(C)C)c(=O)[nH]c1=O	IIIB		syncytia	0.05 µM
COc1ccc(C=O)cc1B(O)O	IIIB		syncytia	≥250 µM
Cc1occc1C(=S)Nc1ccc(Cl)c(/C=N/OC(C)(C)C)c1	IIIB	RT-L100I	syncytia	0.24 ± 0.05 µM
Cc1ccnc2c1NC(=O)c1cccnc1N2C1CC1	IIIB TIBO R82913 STR-1 (RT L100I Y181C)	RT-L100I Y181C	syncytia	1.5 µM
COc1ccc2c(c1)N(C(=O)OC(C)C)[C@@H](CSC)C(=S)N2	IIIB	RT-L100I	p24	0.002 µg/mL
CC(C)Nc1cccnc1N1CCN(C(=O)c2cc3cc(NS(C)(=O)=O)ccc3[nH]2)CC1	NNRTI-resistant	RT-K103N	cytopathic effect	2.51 µM
CCc1cc(NCc2nc3c(Cl)ccc(Cl)c3o2)c(=O)[nH]c1C	IIIB TIBO R82913-resistant (RT K103N)	RT-K103N	syncytia	0.5 µg/mL
Cc1cn([C@@H]2O[C@H](CO[Si](C)(C)C(C)(C)C)C3(OS(=O)(=O)C=C3N)[C@H]2O[Si](C)(C)C(C)(C)C)c(=O)n(CC(=O)N[C@H](C(=O)OCc2ccccc2)C(C)C)c1=O	IIIB		syncytia	2.3 µM
Nc1ncnc2c1ncn2CCOCP(=O)(O)O	IIIB-Nevirapine(1.0)(RT-Y181C)	RT-Y181C	syncytia	22 µM
Cc1cn([C@@H]2O[C@H](CO[Si](C)(C)C(C)(C)C)C3(OS(=O)(=O)C=C3N)[C@H]2O[Si](C)(C)C(C)(C)C)c(=O)n(CC(=O)N[C@@H](C)C(=O)O)c1=O	IIIB		syncytia	5.5 µM
Cc1cn([C@@H]2O[C@H](CO[Si](C)(C)C(C)(C)C)C3(OS(=O)(=O)C=C3N)[C@H]2O[Si](C)(C)C(C)(C)C)c(=O)n(C)c1=O	Pyr(RT-Y181C)	RT-Y181C	syncytia	3.3 µM
O=C1Nc2cscc2S(=O)(=O)N1c1ccc(Cl)cc1	IIIB		syncytia	>12.7 µM
Cc1ccccc1C(=O)N[C@@H](Cc1ccccc1)[C@H](O)CN(CC(C)C)S(=O)(=O)c1ccc2ncsc2c1	IIIB		cytopathic effect / MTT	0.013 µM
Cc1cn([C@@H]2O[C@H](CO[Si](C)(C)C(C)(C)C)C3(OS(=O)(=O)C=C3N)[C@H]2O[Si](C)(C)C(C)(C)C)c(=O)n(C)c1=O	IIIB WT		cytopathic effect	0.058 µM
CC(C)Nc1cccnc1N1CCN(C(=O)c2cc3ccccc3[nH]2)CC1	IIIB	RT-C181I	syncytia	>15 µM
CCCN1C(=O)N(Cc2ccccc2)S(=O)(=O)c2cscc21	IIIB		syncytia	14.9 µM
Cc1c(O)cccc1C(=O)N[C@@H](Cc1ccccc1)[C@H](O)CN(CC(C)C)S(=O)(=O)c1ccc2nc(N)sc2c1	IIIB		cytopathic effect / MTT	0.014 µM
CCOCn1c(Cc2cc(C)cc(C)c2)c(CC)c(=O)[nH]c1=O	IIIB BHAP(RT-L100I)	RT-L100I	syncytia	0.03 µg/mL
O=c1[nH]cnc2c1ncn2[C@H]1CC[C@@H](CO)O1	IIIB nevirapine-resistant (RT Y181C)	RT-Y181C	syncytia	25 µM
CCc1c(Sc2ccccc2)n(COCc2ccccc2)c(=O)[nH]c1=O	IIIB	RT-Y181C	syncytia	0.3 µM
CC(C)CN(C[C@@H](O)[C@H](Cc1ccccc1)NC(=O)OCc1cncs1)S(=O)(=O)c1ccc2ncsc2c1	IIIB		cytopathic effect / MTT	0.009 µM
CC(C)=CCN1Cc2cc(Cl)cc3[nH]c(=S)n(c23)C[C@@H]1C	IIIB	RT-K103N	cytopathic effect	≥5 µg/mL
Nc1ncnc2c1ncn2CCOCP(=O)(O)O	IIIB	RT-E138K	syncytia	7.5 µM

For reference, 7 entries again:

structure,strain or isolate,changes,method,result
CC(C)=CCN1Cc2cccc3[nH]c(=S)n(c23)C[C@@H]1C,IIIB TIBO R82150-resistant (RT L100I),RT-L100I,syncytia,≥5 µM
Cc1ccccc1C(=O)N[C@@H](Cc1ccccc1)[C@H](O)CN(CC(C)C)S(=O)(=O)c1ccc2nc(N)sc2c1,IIIB,,cytopathic effect / MTT,0.012 µM
c1ccc(C2OCc3nc4ccccc4n32)cc1,TIBO R82150-resistant (RT K103N),RT-K103N,cytopathic effect / MTT,>3.38 µM
CC(C)Nc1cccnc1N1CCN(C(=O)c2cc3ccccc3[nH]2)CC1,IIIB,RT-C181I,syncytia,>15 µM
CCOCn1c(Sc2ccccc2)c(CC)c(=O)[nH]c1=O,IIIB,RT-Y181C,syncytia,0.72 µM
CC(C)=CCN1Cc2cc(Cl)cc3[nH]c(=S)n(c23)C[C@@H]1C,IIIB,RT-K103N,cytopathic effect,≥5 µg/mL
C#CCN1C(=O)N(Cc2ccccc2)S(=O)(=O)c2cscc21,IIIB,,syncytia,5.1 µM